Pooled drug test results. Numbers come from NIAID ChemDB, via PubChem.

All rows: tests in culture; agent: HIV-1; measure: EC50

Blank or dashed fields: not listed here. Lines come from different laboratories, so protocols vary. a–b is a range or a potency band. ECn is the concentration giving n% inhibition of infection, replication or growth.

smiles,strain,mutations,cells,method,result
Cc1ncc(-c2cnc(OCCOc3ccccc3)c(F)c2)c(N2CCC(C)(C)CC2)c1[C@H](OC(C)(C)C)C(=O)O,NL4-3,-,MT-2,luminescence,0.0025 µM
CC(C)C1=C2[C@H]3CC[C@@H]4[C@@]5(C)CC[C@H](OC(=O)[C@H]6C[C@@H](C(=O)O)C6(C)C)C(C)(C)[C@@H]5CC[C@@]4(C)[C@]3(C)CC[C@@]2([C@@H](O)CNC(=O)C(C)(C)NC(=O)c2ccc(Cl)cc2OC2CCNCC2)CC1=O,92HT599,-,MT-2,p24 / ELISA,<1 µM
Cc1cc(Cl)cc(C(=O)c2cc(Cl)ccc2OCC(=O)Nc2ccc(S(N)(=O)=O)cc2C)c1,WTRVA,-,HeLa + HELA CD4+,β-galactosidase,0.011–0.1 µM
CC(C)=CCOc1cc(NC(=S)c2ccsc2C)ccc1Cl,NL4-3 (RT L100I),RT-L100I,CEM + CEM-SS,cytopathic effect / XTT,0.2 µM
COc1ccc(CNCC[C@@]23CC[C@]4(C)[C@H](CC[C@@H]5[C@@]6(C)CC[C@H](OC(=O)[C@H]7C[C@@H](C(=O)O)C7(C)C)C(C)(C)[C@@H]6CC[C@]54C)C2=C(C(C)C)C(=O)C3)cc1,92HT599,-,MT-2,p24 / ELISA,<1 µM
C[C@@H]1CN(C(=O)c2ccccc2)CCN1C(=O)C(=O)c1c[nH]c2c([N+](=O)[O-])cccc12,-,-,HeLa + HELA CD4+/CCR5,luciferase,<10 µM
CC(C)=CCOc1cc(NC(=S)c2ccoc2C)ccc1Cl,4xAZT,-,CEM + CEM-SS,cytopathic effect / XTT,0.006 µM
COCc1nc(Nc2ccc(C#N)cc2)nc(Nc2c(C)cc(/C=C/C#N)cc2C)c1C(=O)NCCc1ccccn1,K103N + Y181C,-,MT4 CMV-EGFP,-,0.0151 µM
COc1cc(Cl)ccc1C(=O)NC(C)(C)C(=O)NC[C@H](O)[C@@]12CC[C@]3(C)[C@H](CC[C@@H]4[C@@]5(C)CC[C@H](OC(=O)[C@H]6C[C@@H](C(=O)O)C6(C)C)C(C)(C)[C@@H]5CC[C@]43C)C1=C(C(C)C)C(=O)C2,92HT599,-,MT-2,p24 / ELISA,<1 µM
O=C(C(=O)N1CCN(C(=O)c2ccccc2)CC1)c1c[nH]c2c(F)c(F)c(F)c(F)c12,-,-,HeLa + HELA CD4+/CCR5,luciferase,<10 µM
Cc1cc(OCCNc2ccc(-c3cnc(C)c([C@H](OC(C)(C)C)C(=O)O)c3N3CCC(C)(C)CC3)cn2)ccc1F,NL4-3,-,MT-2,luminescence,0.0032 µM
Cc1cc(S(N)(=O)=O)ccc1NC(=O)COc1ccc(Cl)cc1C(=O)c1cc(Cl)cc(C#N)c1,HXB2,RT-V106I Y181C,HeLa + HELA CD4+,β-galactosidase,0.011–0.1 µM
Cc1cc(S(N)(=O)=O)ccc1NC(=O)COc1ccc(Cl)cc1C(=O)c1cc(F)cc(C(F)(F)F)c1,IIIB,RT-K103N L100I,HELA MAGI,luciferase,0.003 µM
COCc1nc(Nc2ccc(C#N)cc2)nc(Oc2c(C)cc(/C=C(\C)C#N)cc2C)c1C(=O)NCc1ccncc1,IIIB,-,MT4 CMV-EGFP,-,0.00417 µM
O=C(C(=O)N1CCN(C(=O)c2ccccc2)CC1)c1c[nH]c2cc(C(F)(F)F)ccc12,-,-,HeLa + HELA CD4+/CCR5,luciferase,>10 µM
Cc1cc(S(N)(=O)=O)ccc1NC(=O)COc1ccc(Cl)cc1C(=O)c1cc(F)cc(C#N)c1,HXB2,RT-V106I Y181C,HeLa + HELA CD4+,β-galactosidase,0.011–0.1 µM
Cc1ncc(-c2cnc(OCC3CC(C)C3)c(F)c2)c(N2CCC(C)(C)CC2)c1[C@H](OC(C)(C)C)C(=O)O,NL4-3,-,MT-2,luminescence,0.0049 µM
Cc1cc(OCCCS(N)(=O)=O)ccc1NC(=O)COc1ccc(Cl)cc1C(=O)c1cc(F)cc(C(F)(F)F)c1,HXB2 (RT-K103N Y181C) Recombinant,RT-K103N Y181C,HeLa + HELA CD4+,β-galactosidase,<0.01 µM
COCc1nc(Nc2ccc(C#N)cc2)nc(Nc2c(C)cc(/C=C/C#N)cc2C)c1C(=O)N1CCC(O)CC1,K103N+Y101C,-,MT4 CMV-EGFP,-,1.7 µM
COc1cc(-c2ccc(N=Nc3ccc4c(S(=O)(=O)O)cc(S(=O)(=O)O)c(N)c4c3O)c(OC)c2)ccc1N=Nc1ccc2c(S(=O)(=O)O)cc(S(=O)(=O)O)c(N)c2c1O,ED,-,CEM + CEM-SS,cytopathic effect / XTT,0.5 µM
Cc1cc(C(=O)NC[C@H](O)[C@@]23CC[C@]4(C)[C@H](CC[C@@H]5[C@@]6(C)CC[C@H](OC(=O)[C@H]7C[C@@H](C(=O)O)C7(C)C)C(C)(C)[C@@H]6CC[C@]54C)C2=C(C(C)C)C(=O)C3)n[nH]1,92HT599,-,MT-2,p24 / ELISA,<1 µM
Cc1ncc(-c2ccc(OCCOc3ccccc3C(=O)O)cn2)c(N2CCC(C)(C)CC2)c1[C@H](OC(C)(C)C)C(=O)O,NL4-3,-,MT-2,luminescence,0.1514 µM
COCc1nc(Nc2ccc(C#N)cc2)nc(Nc2c(C)cc(/C=C/C#N)cc2C)c1C(=O)NCCc1ccc(S(N)(=O)=O)cc1,IIIB,-,MT4 CMV-EGFP,-,0.0148 µM
Cc1cc(C)cc(C(=O)c2cc(Cl)ccc2OCC(=O)Nc2ccc(S(N)(=O)=O)cc2C)c1,WTRVA,-,HeLa + HELA CD4+,β-galactosidase,<0.01 µM
CC(C)C1=C2[C@H]3CC[C@@H]4[C@@]5(C)CC[C@H](OC(=O)[C@H]6C[C@@H](C(=O)O)C6(C)C)C(C)(C)[C@@H]5CC[C@@]4(C)[C@]3(C)CC[C@@]2([C@@H](O)CNC(=O)C(C)(CO)NC(=O)c2ccc(Cl)cc2)CC1=O,92HT599,-,MT-2,p24 / ELISA,<1 µM
C[C@H]1CO[C@@H]2Cn3cc(C(=O)NCc4ccc(F)cc4F)c(=O)c(O)c3C(=O)N12,NL4-3,M50I/R263K,CBMC,RT activity,0.0011 µM
Cc1cc(C#N)cc(C(=O)c2cc(Cl)ccc2OCC(=O)Nc2ccc(S(N)(=O)=O)nc2C)c1,HXB2,RT-P225H,HeLa + HELA CD4+,β-galactosidase,<0.01 µM
C/C=C/CSc1cc(NC(=S)c2ccsc2C)ccc1Cl,4XAZT+Y181C (RT D67N K70R Y181C T215Y K219Q),RT-D67N K70R Y181C T215Y K219Q,CEM + CEM-SS,p24,0.2 µM
CCCc1cc(=O)oc2c3c(c4c(c12)OC(C)(C)CC4)O[C@@H](C)[C@H](C)[C@@H]3O,IIIB,-,CEM + CEM-SS,XTT,0.1 µM
COc1cccc2[nH]cc(C(=O)C(=O)N3CCN(C(=O)c4ccccc4)CC3)c12,-,-,HeLa + HELA CD4+/CCR5,luciferase,<10 µM
COCc1nc(Nc2ccc(C#N)cc2)nc(Nc2c(C)cc(/C=C/C#N)cc2C)c1C(=O)NCc1ccncc1,MDR,-,MT4 CMV-EGFP,-,0.0501 µM
O=C(O)c1cc(-n2cccc2)ccc1Cl,93TH051 X4R5 CLADE E,-,PBMC/5.25M7,luciferase / cell fusion,57.3 µM
[2H]C(CCCN)(NC(=O)c1ccc(Cl)cc1)C(=O)NC[C@H](O)[C@@]12CC[C@]3(C)[C@H](CC[C@@H]4[C@@]5(C)CC[C@H](OC(=O)[C@H]6C[C@@H](C(=O)O)C6(C)C)C(C)(C)[C@@H]5CC[C@]43C)C1=C(C(C)C)C(=O)C2,92HT599,-,MT-2,p24 / ELISA,<1 µM
Cc1ccnc2c1NC(=O)c1cccnc1N2C1CC1,94ug114.1.6,-,HEK293T,luciferase,153.8 nM
Cc1ncc(-c2cnc(OCC3(C)CC3)c(F)c2)c(N2CCC(C)(C)CC2)c1[C@H](OC(C)(C)C)C(=O)O,NL4-3,-,MT-2,luminescence,0.0078 µM
CCOC(=O)C1CN(C(=O)c2ccccc2)CCN1C(=O)C(=O)c1c[nH]c2c(C(=O)OC)cccc12,-,-,HeLa + HELA CD4+/CCR5,luciferase,<10 µM
CC1CC(C)CN(S(=O)(=O)c2ccccc2[N+](=O)[O-])C1,2AG,-,HeLa,GFP / fluorescence,9.44 µM
Cc1cc(C#N)cc(C(=O)c2cc(Cl)ccc2OCC(=O)Nc2ccc(OCCCN3CC=CC3)cc2C)c1,HXB2,RT-V106I,HeLa + HELA CD4+,β-galactosidase,<0.01 µM
C[C@@H]1CN(C(=O)c2ccccn2)CCN1C(=O)C(=O)c1c[nH]c2c(F)cccc12,-,-,HeLa + HELA CD4+/CCR5,luciferase,<10 µM
CC(=O)c1c(C)nc(-c2ccccc2)nc1NC(=O)c1ccccc1,1617-1,-,HeLa,GFP / fluorescence,0.3 µM
Cc1ncc(-c2ccc(OCCC3COC3)cn2)c(N2CCC(C)(C)CC2)c1[C@H](OC(C)(C)C)C(=O)O,NL4-3,-,MT-2,luminescence,0.0076 µM
CC(C)C1=C2[C@H]3CC[C@@H]4[C@@]5(C)CC[C@H](OC(=O)[C@H]6C[C@@H](C(=O)O)C6(C)C)C(C)(C)[C@@H]5CC[C@@]4(C)[C@]3(C)CC[C@@]2(CCNC(=O)c2ccc(N3CCS(=O)(=O)CC3)nc2)CC1=O,92HT599,-,MT-2,p24 / ELISA,<1 µM
COCCNC(=O)c1c(COC)nc(Nc2ccc(C#N)cc2)nc1Nc1c(C)cc(/C=C(\C)C#N)cc1C,K103N+Y101C,-,MT4 CMV-EGFP,-,0.0195 µM
CC(C)C1=C2[C@H]3CC[C@@H]4[C@@]5(C)CC[C@H](OC(=O)[C@H]6C[C@@H](C(=O)O)C6(C)C)C(C)(C)[C@@H]5CC[C@@]4(C)[C@]3(C)CC[C@@]2([C@@H](O)CNC[C@H](C)NC(=O)c2ccc(Cl)cc2)CC1=O,92HT599,-,MT-2,p24 / ELISA,<1 µM
Cc1ncc(-c2ccc(NCCOc3ccc(F)cc3)cn2)c(N2CCC(C)(C)CC2)c1[C@H](OC(C)(C)C)C(=O)O,NL4-3,-,MT-2,luminescence,0.0016 µM
COCc1nc(Nc2ccc(C#N)cc2)nc(Nc2c(C)cc(/C=C/C#N)cc2C)c1C(=O)NCC1CCCO1,K103N+Y101C,-,MT4 CMV-EGFP,-,0.0372 µM
COc1ccc(Cl)c2[nH]cc(C(=O)C(=O)N3CCN(C(=O)c4cccc(N)c4)C[C@H]3C)c12,-,-,HeLa + HELA CD4+/CCR5,luciferase,<10 µM
CC(C)C1=C2[C@H]3CC[C@@H]4[C@@]5(C)CC[C@H](OC(=O)[C@H]6C[C@@H](C(=O)O)C6(C)C)C(C)(C)[C@@H]5CC[C@@]4(C)[C@]3(C)CC[C@@]2(CCNCC2CC2)CC1=O,92HT599,-,MT-2,p24 / ELISA,<1 µM
CCC(=O)c1ccc(F)c([C@@H]2C[C@@H]2NC(=O)Nc2ccc(C#N)cn2)c1O,LAI,NNRTI-resistant (RT Y188H),TZM-bl,β-galactosidase / luminescence,0.00116 µM
C[C@@H]1CN(C(=O)c2ccccc2)CCN1C(=O)C(=O)c1c[nH]c2cc(Cl)ccc12,-,-,HeLa + HELA CD4+/CCR5,luciferase,<10 µM

For reference, 4 entries again:

Cc1cc(C(=O)NC[C@H](O)[C@@]23CC[C@]4(C)[C@H](CC[C@@H]5[C@@]6(C)CC[C@H](OC(=O)[C@H]7C[C@@H](C(=O)O)C7(C)C)C(C)(C)[C@@H]6CC[C@]54C)C2=C(C(C)C)C(=O)C3)n[nH]1 ; strain: 92HT599 ; cells: MT-2 ; method: p24 / ELISA ; result: <1 µM
Cc1cc(S(N)(=O)=O)ccc1NC(=O)COc1ccc(Cl)cc1C(=O)c1cc(Cl)cc(C#N)c1 ; strain: HXB2 ; mutations: RT-V106I Y181C ; cells: HeLa + HELA CD4+ ; method: β-galactosidase ; result: 0.011–0.1 µM
Cc1cc(C#N)cc(C(=O)c2cc(Cl)ccc2OCC(=O)Nc2ccc(S(N)(=O)=O)nc2C)c1 ; strain: HXB2 ; mutations: RT-P225H ; cells: HeLa + HELA CD4+ ; method: β-galactosidase ; result: <0.01 µM
COCc1nc(Nc2ccc(C#N)cc2)nc(Nc2c(C)cc(/C=C/C#N)cc2C)c1C(=O)NCCc1ccccn1 ; strain: K103N + Y181C ; cells: MT4 CMV-EGFP ; result: 0.0151 µM